Measured values from several laboratories, pooled; numbers as filed in NIAID ChemDB.

Common to all: whole-cell or culture tests; species: Candida albicans; measure: MIC

Neighbouring rows are from separate reports. An empty or dashed field is not shown.

structure	strain or isolate	read by	value
C[C@@H]1C[C@@H]([C@H](O)CC2CC(=O)NC(=O)C2)C(=O)[C@@H](C)C1	Isolate 2	-	0.54 µM
CC(=O)N1CCN(c2ccc(OC[C@H]3CO[C@](Cn4ccnc4)(c4ccc(Cl)cc4Cl)O3)cc2)CC1	Isogenic isolate 7 MDR1 (25X)	-	≤0.008 µg/mL
C=CCc1ccc(O)c(-c2ccc(O)c(CC=C)c2)c1	YL 313	broth dilution	64 µg/mL
C[C@H]1[C@H](O)[C@@H](C)/C=C/C=C/C=C/C=C/C=C/C=C/C=C/[C@H](O[C@@H]2O[C@H](C)[C@@H](O)[C@H](N)[C@@H]2O)C[C@@H]2O[C@](O)(C[C@@H](O)C[C@@H](O)CC[C@H](O)[C@@H](O)C[C@@H](O)CC(=O)O[C@H]1C)C[C@H](O)[C@H]2C(=O)O	ATCC 90028	-	0.0125 µg/mL
CNC1CN(c2c(F)cn3c(=O)c(C(=O)O)cc(C4CC4)c3c2C)CC1O.Cl	CCH442	-	>100 µg/mL
CC(=O)N[C@H]1CCN(c2c(F)cn3c(=O)c(C(=O)O)cc(C4CC4)c3c2C)C1	CCH442	-	>100 µg/mL
Cc1c(N2CCC(CN)CC2)c(F)cn2c(=O)c(C(=O)O)cc(C3CC3)c12.Cl	CCH442	-	>100 µg/mL
CC1=C(N2CCC(N)(C(F)(F)F)C2)C(F)=CN2C(=O)C(C(=O)O)=CC(C3CC3)C12	CCH442	-	>100 µg/mL
CC(Cc1ccc(C(C)(C)C)cc1)CN1CC(C)OC(C)C1	DAY364 (genotype CNB1/CNB1)	-	≤0.01 µg/mL
Cc1c(N2C[C@@H]3C[C@H]2CN3)c(F)cn2c(=O)c(C(=O)O)cc(C3CC3)c12	CCH442	-	>100 µg/mL
Cc1c(N2CCCC(n3cccc3)C2)c(F)cn2c(=O)c(C(=O)O)cc(C3CC3)c12	CCH442	-	>100 µg/mL
Cc1c(N2CCC(C(C)N)C2)c(F)cn2c(=O)c(C(=O)O)cc(C3CC3)c12.Cl	CCH442	-	>100 µg/mL
Cc1c(N2CCC(CN)CC2)c(F)cn2c(=O)c(C(=O)O)cc(C3CC3)c12	CCH442	-	>100 µg/mL
Cc1c(N2CC(CN(C)C)CC3CCCC32)c(F)cn2c(=O)c(C(=O)O)cc(C3CC3)c12.Cl	CCH442	-	>100 µg/mL
Cc1c(N2CC3CCCN(C)C3C2)c(F)cn2c(=O)c(C(=O)O)cc(C3CC3)c12.Cl	CCH442	-	0.1 µg/mL

The first 2 rows once more:

structure	strain or isolate	read by	value
C[C@@H]1C[C@@H]([C@H](O)CC2CC(=O)NC(=O)C2)C(=O)[C@@H](C)C1	Isolate 2	-	0.54 µM
CC(=O)N1CCN(c2ccc(OC[C@H]3CO[C@](Cn4ccnc4)(c4ccc(Cl)cc4Cl)O3)cc2)CC1	Isogenic isolate 7 MDR1 (25X)	-	≤0.008 µg/mL